Experimental data taken from paper PMC3334918, “Mutagenesis and Functional Studies with Succinate Dehydrogenase Inhibitors in the Wheat Pathogen Mycosphaerella graminicola” (PLoS ONE, 2012).

Legend:
[1] = test system: SDH B_H267Q (strain Bos59); test: in vitro succinate: Q0/DCPIP activity test, purified mitochondria; assay type: biochemical, Mycosphaerella graminicola; conditions: ratio IC50mutant/IC50WT, single determination
Method: (§1) To explore the sensitivity profiles conferred by amino acid substitutions at the cellular and mitochondrial level, we determined sensitivity towards 4 different compounds for 26 of the identified substitution types both in vivo using liquid culture growth (AE media) and in vitro using purified mitochondria and the succinate: Q0/DCPIP activity test (Table 3). […] Resistance factors (RF) were determined as the ratio IC50mutant/IC50WT. […] Qp site mutations are well known to influence SDH enzyme activity and stability upon catalysis, [13], [38], [41].
(§2) Strains were grown in 1 liter TSM40 units. Cultures were inoculated at 0.05 OD600 nm and grown on a reciprocal shaker (110 rpm, 22°C) for 5 days. Cells were harvested by vacuum filtration and disrupted in liquid nitrogen using a mortar and pestle. Resultant powder was re-suspended to 10% w/v in mitochondrial extraction buffer (10 mM KHPO4 pH7.2; 10 mM KCl, 10 mM MgCl2, 0.5 M sucrose, 0.2 mM EDTA, 2 mM PMSF). Extract was clarified by centrifugation (5,000 g, 4°C for 10 minutes, 2 times), intact mitochondria were then pelleted at 10,000 g for 20 minutes at 4°C. […] This volume was transferred to conical 1.5 ml tubes and re-centrifuged, 10,000 g for 10 minutes at 4°C. […] Mitochondrial suspensions were brought to a final concentration of 10 mg ml^−1 in extraction buffer and stored at −80°C until used.
(§3) Mitochondrial suspensions were incubated at 30°C for 30 minutes in extraction buffer supplemented with 10 mM succinate prior to enzymatic measurements.
(§4) A reaction plate was equilibrated for 10 minutes at 30°C before starting the reaction. DCPIP reduction was conducted at 30°C and monitored at 595 nm using a HTS7000 microtiterplate reader (Perkin Elmer). For calculations a molecular extinction coefficient of ε = 17 mM^−1 cm^−1 was used.
(§5) Inhibitor concentrations ranged between 1 mM and 0.95 nM with uniform 4× dilution factor steps (11 inhibitor concentrations+DMSO control). 96 wells plates were pre equilibrated at reaction temperature (30°C) for 10 minutes before the reactions were started by the addition of 5 µl preactivated M. graminicola mitochondrial suspension. Calculated absorbance slopes (OD/hour) were used for IC50 calculations using Graphpad Prism 5.0 software non linear curve fitting against log inhibitor concentrations.

[2] = test system: SDH B_N271K (strain Flu33); test: as above; assay type: biochemical, Mycosphaerella graminicola; conditions: ratio IC50mutant/IC50WT, single determination
Method: as §1, §2, §3, §4, §5

[3] = test system: SDH B_H267Y (strain Cbx28); test: as above; assay type: biochemical, Mycosphaerella graminicola; conditions: ratio IC50mutant/IC50WT, single determination
Method: as §1, §2, §3, §4, §5

[4] = test system: SDH D_D129T (strain Flu29); test: as above; assay type: biochemical, Mycosphaerella graminicola; conditions: ratio IC50mutant/IC50WT, single determination, FR** (full resistance) = no sufficient inhibition detected at highest inhibitor concentration tested
Method: as §1, §2, §3, §4, §5

[5] = test system: SDH B_N225I (strain Flu7); test: as above; assay type: biochemical, Mycosphaerella graminicola; conditions: ratio IC50mutant/IC50WT, single determination
Method: as §1, §2, §3, §4, §5

[6] = test system: SDH D_D129S (strain Cbx101); test: as above; assay type: biochemical, Mycosphaerella graminicola; conditions: ratio IC50mutant/IC50WT, single determination
Method: as §1, §2, §3, §4, §5

[7] = test system: SDH B_P220L (strain Flu75); test: as above; assay type: biochemical, Mycosphaerella graminicola; conditions: ratio IC50mutant/IC50WT, single determination
Method: as §1, §2, §3, §4, §5

[8] = test system: SDH C_V88D (strain Ol50); test: as above; assay type: biochemical, Mycosphaerella graminicola; conditions: ratio IC50mutant/IC50WT, single determination
Method: as §1, §2, §3, §4, §5

[9] = test system: SDH C_T79I (strain Bos64); test: as above; assay type: biochemical, Mycosphaerella graminicola; conditions: ratio IC50mutant/IC50WT, single determination
Method: as §1, §2, §3, §4, §5

[10] = test system: SDH B_H267L (strain Cbx29); test: as above; assay type: biochemical, Mycosphaerella graminicola; conditions: ratio IC50mutant/IC50WT, single determination
Method: as §1, §2, §3, §4, §5

[11] = test system: SDH C_A84I (strain Flu21); test: as above; assay type: biochemical, Mycosphaerella graminicola; conditions: ratio IC50mutant/IC50WT, single determination
Method: as §1, §2, §3, §4, §5

[12] = test system: SDH B_N225H (strain Cbx106); test: as above; assay type: biochemical, Mycosphaerella graminicola; conditions: ratio IC50mutant/IC50WT, single determination
Method: as §1, §2, §3, §4, §5

[13] = test system: SDH B_I269V (strain Cbx1); test: as above; assay type: biochemical, Mycosphaerella graminicola; conditions: ratio IC50mutant/IC50WT, single determination
Method: as §1, §2, §3, §4, §5

[14] = test system: SDH B_P220T (strain Flu110); test: as above; assay type: biochemical, Mycosphaerella graminicola; conditions: ratio IC50mutant/IC50WT, single determination
Method: as §1, §2, §3, §4, §5

[15] = test system: SDH C_H152R (strain Izm1); test: as above; assay type: biochemical, Mycosphaerella graminicola; conditions: ratio IC50mutant/IC50WT, single determination
Method: as §1, §2, §3, §4, §5

[16] = test system: SDH C_N86K (strain Izm7); test: as above; assay type: biochemical, Mycosphaerella graminicola; conditions: ratio IC50mutant/IC50WT, single determination
Method: as §1, §2, §3, §4, §5

[17] = test system: SDH B_R265P (strain Cbx56); test: as above; assay type: biochemical, Mycosphaerella graminicola; conditions: ratio IC50mutant/IC50WT, single determination
Method: as §1, §2, §3, §4, §5

[18] = test system: SDH B_H267N (strain Cbx96); test: as above; assay type: biochemical, Mycosphaerella graminicola; conditions: ratio IC50mutant/IC50WT, single determination
Method: as §1, §2, §3, §4, §5

[19] = test system: SDH D_D129E (strain Cbx22); test: as above; assay type: biochemical, Mycosphaerella graminicola; conditions: ratio IC50mutant/IC50WT, single determination
Method: as §1, §2, §3, §4, §5

[20] = test system: M. graminicola isolate IPO323; test: UV mutagenesis and selection of resistant colonies on carboxamide amended AE agar; assay type: cell-based, Mycosphaerella graminicola
Method: Selection plates were produced after adding 1% of a 100× DMSO solution of the active ingredients to pre-melted AE-agar.
Cells were harvested from 4 days old V8 agar plates and conidial cells were suspended in liquid AE. 10^7 cells were spread onto carboxamide amended AE agar plates and mutagenized using UV Stratalinker 2400 (Stratagene) with 75 mJ cm^−2 or 50 mJ cm^−2. […] Selection plates were incubated in the dark at 20°C for 14 days. Visible colonies were picked from the primary selection plate and re-grown on fresh selection media for 2 additional weeks under the same conditions.

[21] = test system: M. graminicola WT (IPO323); assay type: cell-based, Mycosphaerella graminicola; conditions: None, ratio IC50mutant/IC50WT
Method: as §1
Conidial cells were collected from 4 day old V8 agar plates (cultured at 18°C in the dark) using liquid AE and a cell spreader. Cell density was determined and cells re-suspended to a concentration of 5×10^5 cells ml^−1 in AE media. Sterile 96 wells microtiter plates with lids (Costar) were inoculated with 198 µl of this cell suspension (10^5 cells per well) and 2 µl of inhibitor (100× in DMSO). Final inhibitor concentrations were between 0.95 nM and 1 mM with uniform 4× dilution factor steps (11 inhibitor concentrations+1 DMSO control). Plates were incubated for 6 days at 19°C in the dark before cells were re-suspended and measured for growth (OD600 nm). IC50 values were determined by non linear curve fitting on the basis of measured OD values versus log inhibitor concentrations (GraphPad Prism 5.0 software).

[22] = selection at 5× MSC, UV treatment 50 mJ cm^−2
[23] = selection at MSC, UV treatment 50 mJ cm^−2
[24] = selection at 5× MSC, UV treatment 75 mJ cm^−2

| SMILES | Resistance Factors (RFs) in vitro [1] | Resistance Factors (RFs) in vitro [2] | Resistance Factors (RFs) in vitro [3] | Resistance Factors (RFs) in vitro [4] | Resistance Factors (RFs) in vitro [5] | Resistance Factors (RFs) in vitro [6] | Resistance Factors (RFs) in vitro [7] | Resistance Factors (RFs) in vitro [8] | Resistance Factors (RFs) in vitro [9] | Resistance Factors (RFs) in vitro [10] | Resistance Factors (RFs) in vitro [11] | Resistance Factors (RFs) in vitro [12] | Resistance Factors (RFs) in vitro [13] | Resistance Factors (RFs) in vitro [14] | Resistance Factors (RFs) in vitro [15] | Resistance Factors (RFs) in vitro [16] | Resistance Factors (RFs) in vitro [17] | Resistance Factors (RFs) in vitro [18] | Resistance Factors (RFs) in vitro [19] | Frequency (of resistance development) [20, 22] | further results |
| --- | --- | --- | --- | --- | --- | --- | --- | --- | --- | --- | --- | --- | --- | --- | --- | --- | --- | --- | --- | --- | --- |
| O=C(Nc1ccccc1-c1ccc(Cl)cc1)c1cccnc1Cl [Boscalid] | 1034.3 | 223.7 | 473.8 | 5515.8 | 18.5 | 341.2 | 2.6 | 59.8 | 145.6 | 9126.6 | 4.4 | 20.1 | 12.7 | 28 and 28.3 | 58.1 | 160.2 | 256.0 | 34.8 | 1220.9 | 8.8E-06 | Frequency (of resistance development) [20, 23]: 1.3E-06; Resistance Factors (RFs) in vivo [21]: 1 |
| CC1=C(C(=O)Nc2ccccc2)SCCO1 [Carboxin] | 85.5 | 1069.2 | 65.9 | FR** | 6.9 | 377.7 | 4.4 | 67.2 | 62.0 | 1959.3 | 1.8 | 38.0 | 19.9 | 0.7 | 45.4 | 135.9 | 271.1 | 232.7 | 631.6 | 1.1E-08 | Frequency (of resistance development) [20, 24]: 1.1E-08; Frequency (of resistance development) [20, 23]: 6.2E-07; Resistance Factors (RFs) in vivo [21]: 1 |
| O=C(NCCc1ncc(C(F)(F)F)cc1Cl)c1ccccc1C(F)(F)F [Fluopyram] | 11.8 | 2481.0 | 5.1 | 3724.4 | 25.0 | 12.3 | 3.3 | 55.4 | 12.3 | 766.1 | 260.0 | 15.2 | 18.0 | 85 and 84.9 | 14.3 | 245.8 | 63.0 | 68.3 | 10.5 | absence of growing colonies | Frequency (of resistance development) [20, 24]: 2.2E-08; Frequency (of resistance development) [20, 23]: 7.1E-07; Resistance Factors (RFs) in vivo [21]: 1 |

Values joined by “and” are separate entries in the source; they are usually repeats but may differ in a detail not shown here. Equal values may be shown once.
